Experimental data: PubChem BioAssay AID624099 (ICCB-Longwood, 2012)
Purpose: 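Human genes that papillomavirus E2 requires to repress the HPV18 LCR promoter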 (primary screen). System: human C33A cervical carcinoma cells (HPV-negative) stably expressing BPV1 E2 and an HPV18 LCR luciferase reporter. Reagent: siRNA pool against human genes, 40 nM. Duration: 72 h. Detection: 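Per-well luciferase luminescence, z-scored on each plate against the plate mean and SD with control wells left out, then averaged across three replicate plates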. Direction: mean z-score and z-score: higher = stronger reporter signal, weaker E2 silencing. Hit rule: 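Hit if mean z-score reaches 2 and two or more of three replicate z-scores also reach 2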.
Here is an unselected part of about 21,000 reagents. Over the whole deposit, 497 (2.4%) are marked active. 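Higher z means weaker E2 silencing; only reporter increases were scored, and knock-downs that hurt cell survival may mask genuine repressor factors.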 Unmarked entries are inactive.

Target gene	mean z-score	z-score, replicate A	z-score, replicate B	z-score, replicate C
LUC7L2	0.22	0.47	0.12	0.08
HEY1	-0.92	-0.94	-1.33	-0.49
MBD3L1	2.39 (active)	2.46	2.27	2.44
METAP1D	-0.66	-0.71	-0.44	-0.84
GAMT	1.23	1.44	0.91	1.33
LOC400707 (retired record)	-0.38	-0.51	-0.49	-0.14
TPI1P1	0.73	0.89	0.53	0.76
TCF3	-1.24	-1.32	-1.41	-0.99
BMP8B	-1.27	-1.23	-1.22	-1.36
LYST	-0.72	-0.8	-0.71	-0.65
UBQLN1	0.17	0.27	0.3	-0.05
DNAH3	0.95	0.95	1.2	0.7
NDUFV1	-2.03	-2.17	-1.94	-1.99
DPYSL3	-0.03	-0.41	0.16	0.16
CCDC71L	0.3	0.16	0.43	0.32
TCEAL9	-0.52	-0.56	-0.06	-0.94
PRDM13	0.65	0.44	1.04	0.47
AGPAT2	-1.01	-1.04	-0.94	-1.07
RP9	-0.4	-0.33	-0.4	-0.47
HOXA5	0.14	0.21	0.35	-0.12
KRT78	-0.06	-0.16	-0.03	0.02
AJAP1	-1.14	-0.81	-1.34	-1.27
EIF2B5	0.06	0.01	0.15	0

An excerpt of the results above, for reference:
Target gene	mean z-score	z-score, replicate A	z-score, replicate B	z-score, replicate C
LUC7L2	0.22	0.47	0.12	0.08
HEY1	-0.92	-0.94	-1.33	-0.49
MBD3L1	2.39 (active)	2.46	2.27	2.44
METAP1D	-0.66	-0.71	-0.44	-0.84
